A mixed list of measured activities; the numbers were collected in NIAID ChemDB.

Common to all: target-level tests; organism: Hepatitis C virus; protein: NS3 protease

ICn: concentration for n% inhibition.

smiles | method | strain | measure | value
O=c1c(Br)cc(CN2CCOCC2)cc(Br)c1O |  |  | IC50 | 17.56 µM
C=C[C@@H]1C[C@]1(NC(=O)[C@@H]1C[C@@H](Oc2cc(-c3ccccc3)nc3cc(CO)ccc23)CN1C(=O)[C@@H](NC(=O)OC(C)(C)C)C(C)(C)C)C(=O)O | radiometric | 1b | IC50 | 0.08 µM
CC(C)C[C@H](NC(=O)[C@@H](Cc1ccccc1)NC(=O)[C@@H](N)CC(=O)O)C(=O)N[C@@H](CCC(=O)O)C(=O)N[C@@H](CC1CCCCC1)C(=O)N[C@@H](CS)C(=O)O |  |  | IC50 | 0.82 µM
CC1=C(C2=C(C)C(=O)C(=O)N(Cc3ccccc3)C2=O)C(=O)N(Cc2ccccc2)C(=O)C1=O |  |  | IC50 | 6 µM
CC[C@H](NC(=O)[C@H](CC1CCCCC1)NC(=O)C(NC(=O)[C@H](CC(C)C)NC(=O)c1cnccn1)[C@@H](C)CC)C(=O)C(=O)NCC(=O)NS(=O)(=O)c1ccc2ccccc2c1 |  |  | IC50 | 8.9 µM
CCC(NC(=O)[C@@H]1[C@H]2CC[C@@H](F)[C@H]2CN1C(=O)[C@@H](NC(=O)[C@@H](NC(=O)c1cnccn1)C(C)C)C(C)C)C(=O)C(=O)NC1CC1 |  |  | Ki | 0.3 µM
CC(=O)N[C@H](C(=O)N[C@H](C(=O)N1C[C@H](Sc2ccnc3c(C(F)(F)F)cccc23)CC1C(=O)NC1(C(=O)O)CC1)C(C)C)C1CCCCC1 |  |  | IC50 | 9 µM
CC[C@@H](C)[C@H](NC(=O)[C@H](CC(C)C)NC(=O)[C@@H](CCC(=O)O)NC(=O)[C@H](CC(=O)O)NOC(=O)CCC(=O)O)C(=O)N[C@@H](CC1CCCCC1)C(=O)NC1(C(=O)c2nn[nH]n2)CC1 |  |  | Ki | 1.9 µM
C=C[C@@H]1C[C@]1(NC(=O)[C@@H]1C[C@@H](Oc2cc(-c3ccccc3)nc3cc(OC)ccc23)C[C@H]1C(=O)N[C@H](C(=O)NC(C)(C)C)C(C)(C)C)C(=O)O |  |  | Ki | 6.9 µM
CC(=O)N[C@H](C(=O)N[C@H](C(=O)N1C[C@H](Oc2ccnc3ccccc23)C[C@H]1C(=O)NC1(C(=O)O)CC1)C(C)C)C1CCCCC1 |  |  | IC50 | 5 µM
CC(C)[C@H](NC(=O)[C@H](CCC(=O)O)NC(=O)[C@@H](N)CC(=O)O)C(=O)N[C@H](C(=O)N1CCC[C@H]1C(=O)NC1(B2O[C@@H]3CC4CC(C4(C)C)[C@]3(C)O2)CCCCC1)C(C)C |  |  | Ki | >100 µM
CC[C@H](NC(=O)[C@H](CC1CCCCC1)NC(=O)[C@@H](NC(=O)[C@H](CC(C)C)NC(=O)[C@@H](CCC(=O)O)NC(=O)[C@H](CC(=O)O)NC(C)=O)[C@H](C)CC)C(=O)C(=O)/C=C/CCCC(C)C |  |  | Ki | 0.98 µM
O=c1c(Br)cc(Br)cc(Br)c1O |  |  | IC50 | ≥100 µM
CCC[C@H](NC(=O)[C@@H]1C[C@@H](Oc2cc(-c3ccccc3)nc3cc(OC)ccc23)C[C@H]1C(=O)N[C@H](C(=O)N[C@H](C(=O)NC)C1CCCCC1)C(C)(C)C)C(=O)O |  |  | Ki | 1.7 µM
CCCC[C@H](NC(=O)[C@H](CC(C)C)NC(=O)[C@@H](NC(=O)[C@](C)(Cc1ccccc1)NC(=O)[C@H](NC(=O)[C@H](CC(=O)O)NC(=O)CCC(=O)O)C(C)C)C(C)(C)C)C(=O)C(N)=O |  |  | IC50 | 0.02 µM
C=C[C@@H]1C[C@]1(NC(=O)[C@@H]1C[C@@H](Oc2cc(-c3ccccc3)nc3cc(OC)ccc23)C[C@H]1C(=O)N[C@H](C(=O)NC1CCCC1)C(C)(C)C)C(=O)O |  |  | Ki | 2.7 µM
CC(=O)N[C@H](C(=O)N[C@H](C(=O)N1CC(Oc2ccnc3cc(Cl)ccc23)CC1C(=O)NC1(C(=O)O)CC1)C(C)C)C1CCCCC1 |  |  | IC50 | 0.8 µM
CC[C@@H](C=O)NC(=O)[C@@H]1C[C@@H](OCc2ccccc2)CN1C(=O)[C@@H](NC(=O)c1c(-c2ccccc2)noc1C)C(C)C |  |  | Ki | >100 µM
CC[C@H](NC(=O)[C@H](CC1CCCCC1)NC(=O)[C@@H](NC(=O)[C@H](CC(C)C)NC(=O)[C@@H](CCC(=O)O)NC(=O)[C@H](CC(=O)O)NC(C)=O)[C@H](C)CC)C(=O)CCCCCC(C)C |  |  | Ki | 0.46 µM
CC(=O)N[C@H](C(=O)N[C@H](C(=O)N1C[C@H](Oc2cccc(Br)c2)C[C@H]1C(=O)NC1(C(=O)O)CC1)C(C)C)C1CCCCC1 |  |  | IC50 | 50 µM
CC(C)C[C@H](NC(=O)[C@H](Cc1ccc([N+](=O)[O-])cc1)NC(=O)[C@@H](N)CC(=O)O)C(=O)N[C@@H](CCC(=O)O)C(=O)N[C@@H](CC1CCCCC1)C(=O)N[C@@H](CS)C(=O)O |  |  | IC50 | 0.24 µM
CC(C)(C)NC(=O)N[C@H](C(=O)C1CC2C([C@H]1C(=O)N[C@@H](CC1CCC1)C(=O)C(N)=O)C2(C)C)C(C)(C)C |  |  | Ki | 0.023 µM
CC(=O)N[C@H](C(=O)N[C@H](C(=O)N1C[C@H](Oc2nccc3ccccc23)CC1C(=O)NC1(C(=O)O)CC1)C(C)C)C1CCCCC1 |  |  | IC50 | 8 µM
C=C[C@@H]1C[C@]1(NC(=O)[C@@H]1C[C@@H](Oc2cc(-c3ccccc3)nc3cc(OC)ccc23)C=C1C(=O)N[C@H](C(=O)N[C@H](C(=O)NC)C1CCCCC1)C(C)(C)C)C(=O)O |  |  | Ki | 0.016 µM
C=C[C@@H]1C[C@]1(NC(=O)[C@@H]1C[C@@H](Oc2cc(-c3ccccc3)nc3cc(CO)ccc23)CN1C(=O)[C@H]1NCSC1(C)C)C(=O)O | radiometric | 1b | IC50 | 1.6 µM
CC[C@H](C)[C@@H](NC(=O)[C@@H](N)CC(=O)O)C(=O)N[C@@H](CC(C)C)C(=O)N[C@@H](CCC(=O)O)C(=O)N[C@@H](CC1CCCCC1)C(=O)N[C@@H](CS)C(=O)O |  |  | IC50 | 0.33 µM
CN(C)C(=O)[C@@H](NC(=O)CNC(=O)C(=O)C(CCC1CC1)NC(=O)[C@@H]1[C@@H]2[C@H](CN1C(=O)[C@@H](NC(=O)OC(C)(C)C)C(C)(C)C)C2(C)C)c1ccccc1 |  |  | Ki | 0.0038 µM
CC[C@@H](C=O)NC(=O)[C@@H]1C[C@@H](OC(=O)Nc2ccccc2-c2ccccc2)CN1C(=O)[C@@H](NC(=O)[C@@H](NC(=O)c1cnccn1)C(C)C)C(C)C |  |  | Ki | 1–100 µM
CC(C)C[C@H](NC(=O)[C@H](CCC(=O)O)NC(=O)[C@@H](N)CC(=O)O)C(=O)N[C@@H](CCC(=O)O)C(=O)N[C@@H](CC1CCCCC1)C(=O)N[C@H](C(=O)O)C(C)C |  |  | IC50 | 4 µM
C=C[C@@H]1C[C@]1(NC(=O)[C@@H]1C[C@@H](Oc2cc(-c3ccccc3)nc3cc(OC)ccc23)C[C@H]1C(=O)N[C@H](C(=O)N[C@H](C(=O)N(C)C)C1CCCCC1)C(C)(C)C)C(=O)O |  |  | Ki | 0.016 µM
CC[C@@H](C=O)NC(=O)[C@H](CC(C)C)NC(=O)[C@@H](NC(=O)[C@@H](NC(=O)c1cccnc1)C(C)C)C(C)C |  |  | Ki | 1–100 µM
O=C(O)c1cc(F)c(CCNC(=O)[C@H](CC(F)F)NC(=O)[C@H]2C[C@@H](C3CCCC3)CN2C(=O)[C@H](O)c2ccccc2)c(F)c1 |  |  | IC50 | >100 µM
CC(C)c1ccc(CN2CCOCC2)c(O)c(=O)c1 |  |  | IC50 | >100 µM
CCC[C@H](NC(=O)[C@@H]1C[C@@H](Oc2cc(-c3ccccc3)nc3cc(OC)ccc23)C[C@H]1C(=O)N[C@H](C(=O)N[C@H](C(=O)NC)C1CCCCC1)C(C)C)C(=O)O |  |  | Ki | 6.6 µM
CC[C@@H](C=O)NC(=O)[C@@H]1C[C@@H](OCc2ccccc2)CN1C(=O)[C@@H](NC(=O)[C@H](CCc1ccccc1)NC(=O)c1cnccn1)C(C)C |  |  | Ki | 1–100 µM
CC(C)C[C@H](NC(=O)[C@@H](Cc1ccc(O)cc1)NC(=O)[C@@H](N)CC(=O)O)C(=O)N[C@@H](CCC(=O)O)C(=O)N[C@@H](CC1CCCCC1)C(=O)N[C@@H](CS)C(=O)O |  |  | IC50 | 0.68 µM

Blank or dashed fields: not listed here. a–b is a range or a potency band. Conditions beyond the fields shown may differ between rows.